From paper PMC12649483, “Novel Chalcone Derivatives as Anti-Leishmania infantum Agents with Potential Synergistic Activity and In Silico Insights” (Antibiotics, 2025)

Experiments:
[1] = tested on: L. infantum promastigotes; test: In vitro leishmanicidal activity (MTT) in promastigote forms; assay type: cell-based, Leishmania infantum; settings: CC50 (PBMCs) / IC50 promastigotes
Description: (§1) Promastigote forms of L. infantum [IOC/L0579 (MHOM/BR/1974/PP75)] were cultured in Schneider’s medium (pH 7.0), supplemented with 20% fetal bovine serum (FBS), 1% human male urine, and 1% antibiotic solution (penicillin 200 U/mL and streptomycin 0.1 mg/mL), and maintained at 26 ± 1 °C (B.O.D SL 200—SOLAB, Piracicaba, SP, BR). The generation of extracellular axenic amastigote forms of L. infantum was based on protocols previously described by Debrabant et al. (2004), with modifications that included the use of Schneider’s medium adjusted to pH 5.5 and incubation at 37 °C (CO2 Series 3517-2, Cornelius, OR, USA).
The antileishmanial activity of compounds against metacyclic promastigote populations was assessed using the MTT (ACROS, Livingston, NJ, USA) assay for cell viability analysis. […]
In 96-well plates, initial screening was performed with serial dilutions (400 to 3.12 μM) of compounds 3a–c and 4a–c in duplicate. […] Following 72 h-treatment of promastigotes and 24 h-treatment of amastigotes (accounting for the stationary phase culture characteristics), MTT was added for 4 h, followed by overnight incubation with sodium dodecyl sulfate (SDS) for spectrophotometric (Biotek model ELx800, Winooski, VT, USA) reading at 540 nm.

[2] = tested on: L. infantum axenic amastigotes; test: In vitro leishmanicidal activity (MTT) in axenic amastigote forms; assay type: cell-based, Leishmania infantum; settings: CC50 (PBMCs) / IC50 amastigotes
Description: as §1
In 96-well plates, initial screening was performed with serial dilutions (400 to 3.12 μM) of compounds 3a–c and 4a–c in duplicate. […] AmB was used as a positive control due to its established leishmanicidal activity, tested at concentrations ranging from 10 to 0.078 μM. Following 72 h-treatment of promastigotes and 24 h-treatment of amastigotes (accounting for the stationary phase culture characteristics), MTT was added for 4 h, followed by overnight incubation with sodium dodecyl sulfate (SDS) for spectrophotometric (Biotek model ELx800, Winooski, VT, USA) reading at 540 nm.

## C[C@@H]1[C@H](O)[C@@H](C)/C=C/C=C/C=C/C=C/C=C/C=C/C=C/[C@H](O[C@@H]2O[C@H](C)[C@@H](O)[C@H](N)[C@@H]2O)C[C@@H]2O[C@](O)(C[C@@H](O)C[C@@H](O)[C@H](O)CC[C@@H](O)C[C@@H](O)CC(=O)O[C@H]1C)C[C@H](O)[C@H]2C(=O)O [AmB, Amphotericin B, reference compound]
[1]
  SI (promastigotes): 34.4
[2]
  SI (amastigotes): 33.6
